How the values were obtained:
[1] = test system: L. major amastigotes; experiment: Activity against L. major amastigotes in peritoneal macrophages (percentage of infected macrophages, Giemsa, 72 h); assay type: cell-based, Leishmania major; details: IC50 macrophages / EC50 L. major amastigotes
Procedure: L. major promastigotes were isolated and maintained according to a described method. BALB/c mice were injected at the hind footpads with 1 × 10^6 L. major metacyclic promastigotes. L. major amastigotes were collected from the infected mice. After 8 weeks had elapsed since inoculation, Schneider’s medium (Invitrogen, USA) containing antibiotics and 10% FBS was used to transform isolated amastigotes into promastigotes by incubation at 26 °C. Amastigote-derived promastigotes with less than five in vitro passages were only used for infection.
Female BALB/c mouse peritoneal macrophages (6–8 weeks old) were used to culture L. major amastigotes to assess the activity of the compounds against amastigotes. Briefly, 1 mL of 3% Brewer’s thioglycollate medium/mouse was injected into the peritoneal cavity. After 4 days, the abdominal skin was removed to expose the peritoneal wall. Then, 3 mL of RPMI 1640 medium was injected before cells were collected by aspiration, whereupon 96-well plates containing RPMI 1640 medium with 10% FBS were used to culture 5 × 10^4 cells/well, which were incubated at 37 °C under 5% CO2 for 4 h. After washing with PBS, RPMI 1640 medium containing 5 × 10^5 promastigotes were added to each well. Next, the cells were incubated at 37 °C under humidified 5% CO2 for 24 h to enhance infection and differentiation of amastigotes. Washing with PBS several times removed free promastigotes. Fresh complete RPMI 1640 medium containing one of the tested compounds or AmB at the desired final concentration (50, 25, 12.5, 6.25, 3.13, 1.65, 0.75, or 0.37 μg mL^–1) was added and incubated at 37 °C under a humidified 5% CO2 atmosphere for 72 h. DMSO (1%), only in complete RPMI media, was used as the negative control. The percentage of infected macrophages was assessed microscopically after the medium was removed, followed by washing with PBS, fixation with methanol, and staining with Giemsa. The reading was performed in triplicate. Handling of the laboratory animals followed the instructions and rules of the Committee of Research Ethics, Deanship of Scientific Research, Qassim University, permission number 20–03–20.

[2] = test system: T. gondii tachyzoites (RH strain); experiment: Anti-Toxoplasma activity (infection index in Vero cells, 72 h); assay type: cell-based; details: IC50 Vero / EC50 T. gondii
Procedure: Tachyzoites of the T. gondii RH strain were cultivated in Vero cells according to a published method. Complete RPMI 1640 medium (Invitrogen, USA) with 10% fetal bovine serum (FBS, Invitrogen, USA) was used to culture Vero cells in 96-well plates (5 × 10^3 cells/well in 200 μL of medium), which were incubated at 37 °C and under 5% CO2 for 24 h. This was followed by washing with phosphate-buffered saline (PBS) to remove the medium. Then, RPMI 1640 medium with 2% FBS containing T. gondii tachyzoites (RH strain) at a ratio of 5 (parasite): 1 (Vero cells) was added. After incubation at 37 °C and under 5% CO2 for 5 h, the cells were washed with PBS and overlaid with medium containing one of the tested compounds or atovaquone (ATO) at 50, 25, 12.5, 6.25, 3.13, 1.65, 0.75, or 0.37 μg mL^–1.
After incubation at 37 °C and under 5% CO2 for 72 h, the cells were stained with 1% toluidine before being examined under an inverted photomicroscope (MCD-400, Leica, Japan) to determine the T. gondii infection index (number of infected cells from 200 tested cells). The experiment was performed in triplicate.

SMILES	SI L. major macro/ama [1]	SI Vero/T. gondii [2]
CCOC(=O)C1=C(C)NC2=C(C(=O)CC(C)(C)C2)C1c1ccc(OCc2ccccc2)cc1 (racemic) [Compound 4, (±)-ethyl 4-(4-(benzyloxy)phenyl)-2,7,7-trimethyl-5-oxo-1,4,5,6,7,8-hexahydroquinoline-3-carboxylate]	1.08	5.57
CCOC(=O)C1=C(C)NC2=C(C(=O)CC(C)(C)C2)C1c1ccccc1[N+](=O)[O-] (racemic) [Compound 9, (±)-ethyl 2,7,7-trimethyl-4-(2-nitrophenyl)-5-oxo-1,4,5,6,7,8-hexahydroquinoline-3-carboxylate]	–	0.37
CCOC(=O)C1=C(C)NC2=C(C(=O)CC(C)(C)C2)C1c1ccc(C)cc1 (stereo not shown) [Compound 2]	<0.81	<0.89
CCOC(=O)C1=C(C)NC2=C(C(=O)CC(C)(C)C2)C1c1ccc(OC)cc1 (stereo not shown) [Compound 3]	<0.69	–
CCOC(=O)C1=C(C)NC2=C(C(=O)CC(C)(C)C2)C1c1ccc(N(C)C)cc1 (stereo not shown) [Compound 5]	0.92	1.67
CCOC(=O)C1=C(C)NC2=C(C(=O)CC(C)(C)C2)C1c1ccc(Br)cc1 (stereo not shown) [Compound 6]	0.47	0.74
CCOC(=O)C1=C(C)NC2=C(C(=O)CC(C)(C)C2)C1c1cccc([N+](=O)[O-])c1 (stereo not shown) [Compound 10]	0.93	0.65
CCOC(=O)C1=C(C)NC2=C(C(=O)CC(C)(C)C2)C1c1ccc(O)c(OC)c1 (stereo not shown) [Compound 11]	0.89	1.70
CCOC(=O)C1=C(C)NC2=C(C(=O)CC(C)(C)C2)C1c1ccc2c(c1)OCO2 (stereo not shown) [Compound 12]	0.70	0.49
CCOC(=O)C1=C(C)NC2=C(C(=O)CC(C)(C)C2)C1c1c(OC)cc(OC)cc1OC (stereo not shown) [Compound 14]	0.8	<0.47
CCOC(=O)C1=C(C)NC2=C(C(=O)CC(C)(C)C2)C1c1cccs1 (stereo not shown) [Compound 16]	0.94	1.55
CCOC(=O)C1=C(C)NC(C)=C(C(=O)OCC)C1c1ccccc1 [Compound 17]	–	1.21
CCOC(=O)C1=C(C)NC(C)=C(C(=O)OCC)C1c1ccc(OC)cc1 [Compound 18]	–	<0.78
CCOC(=O)C1=C(C)NC(C)=C(C(=O)OCC)C1c1ccc(OCc2ccccc2)cc1 [Compound 19]	0.91	<0.70
CCOC(=O)C1=C(C)NC(C)=C(C(=O)OCC)C1c1ccc(Br)cc1 [Compound 20]	0.88	–
CCOC(=O)C1=C(C)NC(C)=C(C(=O)OCC)C1c1cccc([N+](=O)[O-])c1 [Compound 22]	0.84	1.72
CCOC(=O)C1=C(C)NC(C)=C(C(=O)OCC)C1c1ccc(O)c(OC)c1 [Compound 23]	0.73	0.74
CCOC(=O)C1=C(C)NC(C)=C(C(=O)OCC)C1c1cc(OC)c(OC)c(OC)c1 [Compound 24]	0.69	<0.29

— paper PMC12290673, “Antileishmanial and Antitoxoplasmal Activities of 1,4-Dihydropyridines” (ACS Omega, 2025)
